In patent US20070142318A1, “Compositions, methods and kits for repressing virulence in gram positive bacteria” (priority 2004, published 2007):

Legend:
dpp-lacZ = dpp-lacZ expression in vivo (β-galactosidase)
dpp promoter region = test: Gel mobility shift assay of CodY binding to the dpp promoter region; settings: CodY concentration that shifted 50% of the DNA

B1: A207V (protein, UniProt P39779 2-259, looked up, variant A207V)
Global transcriptional …: ALLQKTRIINSMLQAAAGKPVNFKEMAETLRDVIDSNIFVVSRRGKLLGYSINQQIENDRMKKMLEDRQFPEEYTKNLFNVPETSSNLDINSEYTAFPVENRDLFQAGLTTIVPIIGGGERLGTLILSRLQDQFNDDDLILAEYGATVVGMEILREKAEEIEEEARSKAVVQMAISSLSYSELEAIEHIFEELDGNEGLLVASKIVDRVGITRSVIVNALRKLESAGVIESRSLGMKGTYIKVLNNKFLIELENLKSH
B1 was tested, and the “derepression in vivo” value (dpp-lacZ) was “severe derepression”, the “β-galactosidase expression (Miller units) in mid-exponential cells” value (dpp-lacZ; dpp-lacZ, mid-exponential cells) was 116 Miller units and the Kd (dpp promoter region; read-out: Estimated KD (nM), +GTP, ILV, GTP (2 mM) and isoleucine, valine and leucine (10 mM each)) was > 500 nM. The Kd (dpp promoter region; read-out: Estimated KD (nM), No effectors) was > 500 nM.

Read-outs that look alike come from different tables or passages of the source.
